Compound potency records, mixed from different reports. Data source: NIAID ChemDB in PubChem.

Shared fields: tests in culture; organism: Herpes simplex virus 1; endpoint: inhibition

Blank or dashed fields: not listed here. Inhibition is in % at the dose shown (toxicity tests: loss of growth or viability). Rows are shuffled and stem from different studies. "inactive" is the filed call at that dose; no cut-off is given.

| compound | method | strain | cells | tested at | value |
|---|---|---|---|---|---|
| Cc1cn([C@@H]2O[C@H](CO)[C@@H](O)[C@@H]2F)c(=O)[nH]c1=O | virus yield | F | VERO | 2.5 µM | 92.5% |
| Cc1cccc2nc3c(cnc4c3cnn4-c3ccccc3)c(Cl)c12 | virus yield | - | - | 50 µM | 68% |
| O=C1C(=O)N([C@@H]2O[C@H](COCc3ccccc3)[C@@H](OCc3ccccc3)[C@H]2OCc2ccccc2)c2ccccc21 | virus yield | - | VERO | 50 µM | 61% |
| O=c1[nH]c(=O)n([C@H]2C[C@H](O)[C@@H](CO)O2)cc1I | cytopathic effect | - | VERO | 0.1 µg/mL | ≥25% |
| CCn1cnc(=N)c2[nH]cnc21 | plaque count | - | BSC-1 | 25 µg/mL | 0% |
| Nc1nc2c(ncn2COC(CO)CO)c(=O)[nH]1 | plaque count | KOS mutant PFA-R4 | WI-38 | 2.6 µM | 90% |
| CC(C)C[C@H](NC(=O)[C@@H]1O[C@H]1C(=O)O)C(=O)NCCCCN=C(N)N | plaque count | Fukuda | CV-1 | 10 µM | 0% |
| O=c1[nH]c(=O)n([C@H]2C[C@H](O)[C@@H](CO)O2)cc1CCCCl | cytopathic effect | - | HEP-2 | 0.3 µg/mL | ≥25% |
| Clc1c2cnc3c(cnn3-c3ccccc3)c2nc2cccc(Br)c12 | virus yield | - | - | 50 µM | 30% |
| O=c1[nH]c(=O)n([C@@H]2O[C@H](CO)[C@@H](O)[C@@H]2O)cc1/C=C/Br | plaque count | C42 | VERO | 1 µM | 80% |
| CSC(=NCCc1ccccc1)Nc1ccc(Oc2ccc(/C=C(/NCCc3ccccc3)SC)cc2)cc1 | plaque count | - | VERO | 5 µM | >50% |
| O=c1[nH]c(=O)n([C@H]2C[C@H](O)[C@@H](CO)O2)cc1CCCl | cytopathic effect | - | HEP-2 | 0.03 µg/mL | ≥25% |
| Nc1nc2c(ncn2COCCO)c(=O)[nH]1 | virus yield | 7401H | VERO | 0.3 µg/mL | 98% |
| Cc1nnc2nc3c(nn12)c1ccccc1n3C | plaque count | - | BSC-1 | 60 µg/mL | >99% |
| Nc1nc2c(ncn2COC(CO)CO)c(=O)[nH]1 | cytopathic effect | KOS | PRK | 0.2 µg/mL | ≥25% |
| O=S(=O)(c1ccc(OCc2ccc(F)cc2)cc1)c1ccc(OCc2ccc(F)cc2)cc1 | plaque count | - | VERO | 30 µM | >50% |
| O=C1Nc2ccc(I)cc2C1=O | virus yield | - | VERO | 50 µM | 28% |
| O=c1[nH]c(=O)n([C@H]2C[C@H](O)[C@@H](CBr)O2)cc1CCBr | cytopathic effect | - | HEP-2 | 30 µg/mL | ≥25% |
| Clc1ccc2nc3c(cnc4c3cnn4-c3ccccc3)c(Cl)c2c1 | virus yield | - | - | 50 µM | 60% |
| CCCCCCCCCCCCCCCCCCCCCC(=O)OCC(CO[C@@H]1O[C@H](CO)[C@H](O)[C@H](O)[C@H]1O)OC(=O)CCCCCCCCCCCCC | plaque count | KOS | VERO | 50 µg/mL | inactive |
| Fc1cccc2nc3c(cnc4c3cnn4-c3ccccc3)c(Cl)c12 | virus yield | - | - | 50 µM | 91% |
| COc1cccc2c1C(=O)c1c(O)c3c(c(O)c1C2=O)C[C@@](O)(C(C)=O)C[C@@H]3O[C@H]1C[C@H](N)[C@H](O)[C@H](C)O1 | virus yield | - | VERO | 1 µM | 24% |
| COc1ccc(NC(=S)Nc2ccc([N+](=O)[O-])cc2)cc1NC(=S)Nc1ccc([N+](=O)[O-])cc1 | plaque count | - | VERO | 30 µM | <50% |
| C/C=C/c1cn([C@H]2C[C@H](O)[C@@H](CO)O2)c(=O)[nH]c1=O | plaque count | C42ACG-R | VERO | 10 µM | 9% |
| O=C(Nc1ccc(Oc2ccc(NC(=O)c3ccco3)cc2)cc1)c1ccco1 | plaque count | - | VERO | 30 µM | >50% |
| N=c1ncn(Cc2ccc(Cl)cc2Cl)c2nc[nH]c12 | plaque count | - | BSC-1 | 25 µg/mL | 20% |
| Nc1ncnc2nc(-c3cscn3)[nH]c12 | plaque count | - | VERO | 1 µg/mL | 0% |
| O=c1ccn([C@@H]2O[C@H](CO)[C@@H](O)[C@@H]2F)c(=O)[nH]1 | virus yield | F | VERO | 1 µM | 90.8% |
| Cc1ccc2c(c1)C(=O)C(=O)N2 | virus yield | - | VERO | 50 µM | 0% |
| COc1cccc2nc3c(cnc4c3cnn4-c3ccccc3)c(Cl)c12 | virus yield | - | - | 50 µM | 50% |
| Nc1nc2c(ncn2COCCO)c(=O)[nH]1 | virus yield | VL8737 | HL | 1 µg/mL | 17% |
| CCC(=O)C(CCCCCCOc1ccc(OC)cc1Cl)C(=O)CC | plaque count | KOS | VERO | 3 µg/mL | 50% |
| CCCCCCCCCCCCCCCCCC(=O)OCC(CO[C@@H]1O[C@H](CO)[C@@H](O)[C@H](O)[C@H]1O)OC(=O)CCCCCCCCCCC | plaque count | KOS | VERO | 50 µg/mL | inactive |
| CN1C(=O)NC(=O)N([C@H]2C[C@H](O)[C@@H](CO)O2)C1(C)C | plaque count | 42D | VERO | 50 µM | 83% |
| Nc1nc(=O)n([C@@H]2O[C@H](CO)[C@@H](O)[C@@H]2F)cc1I | virus yield | F | VERO | 0.05 µM | 78% |
| CC(C)[C@H](NC(=O)[C@H](CCCN=C(N)N)NC(=O)N[C@@H](Cc1ccccc1)C(=O)O)C(=O)N[C@H](C=O)CCCN=C(N)N | plaque count | Fukuda | CV-1 | 40 µM | 60% |
| O=c1[nH]c(=O)n([C@H]2C[C@H](O)[C@@H](CO)O2)cc1CCBr | cytopathic effect | - | HEP-2 | 3 µg/mL | ≥25% |
| Cc1cccc(NS(=O)(=O)c2ccc(Oc3ccc(S(=O)(=O)Nc4cccc(C)c4)cc3)cc2)c1 | plaque count | - | VERO | 30 µM | >50% |
| Nc1nc(=O)n([C@@H]2O[C@H](CO)[C@@H](O)[C@@H]2F)cc1I | cytopathic effect | - | VERO | 0.01 µg/mL | ≥25% |
| CC/C=C/C/C=C/C/C=C/CCCCCCCC(=O)OCC(CO[C@@H]1O[C@H](CO)[C@H](O)[C@H](O)[C@H]1O)OC(=O)CCCCCCC/C=C\C/C=C\CCCCC | plaque count | KOS | VERO | 50 µg/mL | 100% |
| N=c1ncn(Cc2ccco2)c2nc[nH]c12 | plaque count | - | BSC-1 | 50 µg/mL | 0% |
| O=C1C(=O)N([C@@H]2O[C@H](COCc3ccccc3)[C@@H](OCc3ccccc3)[C@H]2OCc2ccccc2)c2ccc(F)cc21 | virus yield | - | VERO | 50 µM | 15% |
| CCCCCCCCCCCCCCCCCCCCCC(=O)OCC(CO[C@@H]1O[C@H](CO)[C@@H](O)[C@H](O)[C@H]1O)OC(=O)CCCCCCCCCCCCC | plaque count | KOS | VERO | 50 µg/mL | inactive |
| CCCCn1cnc(=N)c2[nH]cnc21 | plaque count | - | BSC-1 | 12 µg/mL | 0% |
| O=[N+]([O-])c1ccc(COc2ccc(S(=O)(=O)c3ccc(OCc4ccc([N+](=O)[O-])cc4)cc3)cc2)cc1 | plaque count | - | VERO | 30 µM | >50% |
| N=c1ncn(Cc2cccc([N+](=O)[O-])c2)c2nc[nH]c12 | plaque count | - | BSC-1 | 6 µg/mL | 0% |
| COc1ccc(NC(=O)Nc2ccc([N+](=O)[O-])cc2)cc1NC(=O)Nc1ccc([N+](=O)[O-])cc1 | plaque count | - | VERO | 5 µM | 0% |
| Nc1ccn([C@H]2O[C@@H](CO)[C@H](O)[C@H]2F)c(=O)n1 | virus yield | F | VERO | 5 µM | 96% |

3 of the rows above, restated:

compound,method,strain,cells,tested at,value
COc1cccc2nc3c(cnc4c3cnn4-c3ccccc3)c(Cl)c12,virus yield,-,-,50 µM,50%
Nc1nc(=O)n([C@@H]2O[C@H](CO)[C@@H](O)[C@@H]2F)cc1I,cytopathic effect,-,VERO,0.01 µg/mL,≥25%
CSC(=NCCc1ccccc1)Nc1ccc(Oc2ccc(/C=C(/NCCc3ccccc3)SC)cc2)cc1,plaque count,-,VERO,5 µM,>50%